pKd: −log10 of the molar value.
Experiments:
[1] = target: gp120, the major envelope glycoprotein of HIV-I (radioiodinated 125I-gp120; unlabeled purified gp120) (HIV-1); test: gp120 binding, method of Smith et al., Science 238:1704 (1987)
[2] = target: gp120, the major envelope glycoprotein of HIV-I (radioiodinated 125I-gp120; unlabeled purified gp120) (HIV-1); test: saturation binding of 125I-gp120 in solution, immunoprecipitation with OKT4, Scatchard analysis

Substance | pKd [1] | pKd [2]
CD42γ1 immunoadheson (CD4 residues 1-180 fused to the constant region of human immunoglobulin γ1; product of pRKCD42γ1) (from UniProt P01730 26-205; P01857 1-330) (Fc fusion) | 8.85 | 
CD44γ1 immunoadheson (CD4 residues 1-366 fused to the constant region of human immunoglobulin γ1; product of pRKCD44γ1) (from UniProt P01730 26-391; P01857 1-330) (Fc fusion) | 8.92 | 
CD4T, residues 1-368 only (Table 4) (from UniProt P01730 26-393) (receptor) | 8.64 | 
detergent solubilized intact CD4 (from UniProt P01730 26-458) (receptor) |  | 8.89
